In article PMC5112231:

Molecular target: T1, Lrp K36Ac (Salmonella Typhimurium 14028s) (UniProt A0A0F6AZA3)
T1 sequence (looked up): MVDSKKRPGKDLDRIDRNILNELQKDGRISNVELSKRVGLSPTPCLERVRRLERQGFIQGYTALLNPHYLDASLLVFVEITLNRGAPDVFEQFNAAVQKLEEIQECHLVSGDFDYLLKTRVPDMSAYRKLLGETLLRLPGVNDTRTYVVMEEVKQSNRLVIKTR
Assay: EMSA
Conditions: K36 acetylated; EMSA: binding buffer 100 mM Tris-HCl pH 8, 375 mM NaCl, 25 mM MgCl2, 5 mM DTT; about 1 nmol DNA in 20 ul, 25 C, 20 min; recombinant protein; residues 1-164; label: 5'-FAM on both primers (6'-FAM in legends); probe letters rebuilt from the primers and the genome

ACACAGTGGAGCAATAATAAAGAATGAGACCTCCCTGTTGACTGGCTATTTTGCGTAAGAGTAATAAATATGTGGAATATCCATTTCGCACCAACAAAAAAGAAATTTCTGATTAAGTAAAAACAATATGGATTATACCTGGTCTGATTTCTCGGAAAAGTCTTGCGAAATGCGAATTATGGATAGCGGGTAGGATATTCTG (double strand) [fimZ promoter]
binding result: binds more weakly

Construct, isoform or probe ends are uncertain for at least one entry. Weaker means in comparison with the reference protein, sequence or condition of that experiment. Protein sequences can lack the tags named with them.
